Test system: M. tuberculosis H37Rv ATCC27294 (wt)
Format: cell-based
Settings: SI = IC50 (HepG2)/MIC (wt)

SMILES | SI (wt)
NNC(=O)c1ccncc1 [INH, isonicotinoylhydrazide, reference compound] | >690
O=C(N/N=C/c1ccc(Oc2ccccc2)cc1)c1ccncc1 [Compound N34, (E)-N'-(4-phenoxybenzylidene)isonicotinohydrazide] | >210
COC(=O)c1ccc(CNNC(=O)c2ccncc2)cc1 [Compound N33red, methyl 4-((2-isonicotinoylhydrazinyl)methyl)benzoate] | >100
O=C(NNCc1ccc(Oc2ccccc2)cc1)c1ccncc1 [Compound N34red, N'-(4-phenoxybenzyl)isonicotinohydrazide] | 48.5
CCCCCCCCCC(=O)NNC(=O)c1ccncc1 [INH-C10, N′-decanoylisonicotinoylhydrazide] | >66
COC(=O)c1ccc(/C=N/NC(=O)c2ccncc2)cc1 [Compound N33, methyl (E)-4-((2-isonicotinoylhydrazineylidene)methyl)benzoate] | >24
